A mixed list of measured activities; the numbers were collected in NIAID ChemDB.

All rows: target-level tests; organism: Pneumocystis carinii; target: DHFR; measure: IC50

ICn: concentration for n% inhibition. Neighbouring rows are from separate reports.

{"structure": "Nc1nc(N)c2nc(CCc3ccc4ccccc4n3)cnc2n1", "result": "0.86 µM"}
{"structure": "COc1ccc(C2c3c(nc(N)[nH]c3=O)OC2[N+](=O)[O-])cc1", "result": "100 µM"}
{"structure": "CC1(C)N=C(N)N=C(N)N1c1ccc(-c2ccc3cc(Cl)ccc3c2)cc1", "result": "4.4 µM"}
{"structure": "Cl.Nc1nc(N)c2nc(CCc3ccccn3)cnc2n1", "result": "57.1 µM"}
{"structure": "CC1(C)N=C(N)N=C(N)N1c1ccc(-c2ccc3c(Cl)c(Cl)ccc3c2)cc1", "result": "3 µM"}
{"structure": "CCOC(=O)CC[C@H](NC(=O)c1ccc(-c2coc3nc(N)[nH]c(=O)c23)cc1)C(=O)OCC", "result": ">300 µM"}
{"structure": "Nc1nc(N)c2c(C(F)(F)F)cccc2n1", "result": "82 µM"}
{"structure": "COc1ccc(C2c3c(nc(N)[nH]c3=O)OC2[N+](=O)[O-])cc1OC", "result": "100 µM"}
{"structure": "CC(C)c1nc2nc(N)nc(N)c2nc1C(C)C", "result": "0.2 µM"}
{"structure": "Nc1nc(N)c2nc(CCc3ccccc3)cnc2n1", "result": "8.4 µM"}
{"structure": "COc1cc(NCc2csc3nc(N)nc(N)c23)cc(OC)c1OC", "result": ">10 µM"}
{"structure": "Nc1nc(N)c2nc(Cc3ccc(Cl)cc3)c(Cc3ccc(Cl)cc3)nc2n1", "result": "5.9 µM"}
{"structure": "COc1cc(N(C)Cc2csc3nc(N)nc(N)c23)cc(OC)c1OC", "result": ">10 µM"}
{"structure": "Nc1nc(N)c2c3c(cnc2n1)CCCC3", "result": ">30 µM"}
{"structure": "CC(C)Cc1nc2nc(N)nc(N)c2nc1CC(C)C", "result": "0.082 µM"}
{"structure": "Cc1ccc2nc(N)nc(N)c2c1", "result": "20 µM"}
{"structure": "CCc1nc2nc(N)nc(N)c2nc1CC", "result": "0.62 µM"}
{"structure": "Nc1nc(N)c2nc(CCc3cccs3)cnc2n1", "result": "12.9 µM"}
{"structure": "COc1cc(-c2coc3nc(N)nc(Cl)c23)cc(OC)c1OC", "result": ">300 µM"}
{"structure": "Cl.Nc1nc(N)c2nc(CCc3ccncc3)cnc2n1", "result": "35.5 µM"}
{"structure": "COc1ccc(N2C(N)=NC(N)=NC2(C)C)c(OC)c1", "result": ">90 µM"}
{"structure": "COc1ccc(OC)c(C2COc3nc(N)[nH]c(=O)c32)c1", "result": "30 µM"}

For reference, 3 entries again:

| structure | result |
|---|---|
| Cl.Nc1nc(N)c2nc(CCc3ccncc3)cnc2n1 | 35.5 µM |
| COc1ccc(C2c3c(nc(N)[nH]c3=O)OC2[N+](=O)[O-])cc1 | 100 µM |
| CC(C)Cc1nc2nc(N)nc(N)c2nc1CC(C)C | 0.082 µM |